Measurements reported in PubChem BioAssay AID1224833 (University of Georgia, 2016).
This is a random part of about 12,000 deposited reagents. In the full data, about 5,600 (46%) were called active. 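Active calls cover z-scores past 1 in both directions, so they include lowered as well as raised rotavirus replication.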 A number with no mark means an inactive call. Reagent sequences are not shown.

Purpose: 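Human genes whose knock-down alters rotavirus replication in monkey cells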 (primary screen)
Cell system: monkey MA104 kidney cells
Knock-down reagent: siRNA pool against human genes, 50 nM
Time to read-out: 48 h knock-down before infection; read 24 h after infection
Conditions: infection with rotavirus strain RV3 two days after transfection; infectious dose for this stage not given
Read-out: 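Rotavirus antigen per well by fluorescent immunoassay, normalised to non-targeting control wells on each plate and given as a standard z-score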
Direction: z-score vs non-targeting control: higher = more rotavirus replication than with non-targeting control
Active means: In these data the active calls have z-score vs non-targeting control at about -1 or lower, or at about 1 or higher
Meaning of the calls: active = z-score beyond 1 either way; inactive = z-score within 1 of zero

The first 4 entries, to show the layout:
Gene | z-score vs non-targeting control
TINAG | 1.72 (active)
ARL4A | -0.834
CEP152 | 1.49 (active)
TSBP1 | -0.601

The list itself, from the start:
Gene | z-score vs non-targeting control
TINAG | 1.72 (active)
ARL4A | -0.834
CEP152 | 1.49 (active)
TSBP1 | -0.601
CFAP54 | 2.2 (active)
FAM241B | -1.22 (active)
EXOC2 | -0.618
PTCD1 | -1.59 (active)
H2AB2 | 0.296
OR10G9 | 1.14 (active)
GPC2 | -1.16 (active)
TRMT9B | -1.95 (active)
HLA-DPB1 | 0.832
DBN1 | -0.462
EDEM3 | -1.89 (active)
CFL1 | -1.88 (active)
VAMP1 | -0.0377
SOFU1 | -1.94 (active)
ARB2A | -1.08 (active)
USH1G | -0.534
CD5L | -1.24 (active)
AFG2B | -1.18 (active)
BATF3 | 1.38 (active)
THYN1 | 0.992
POLL | 0.654
ERGIC3 | 1.38 (active)
AKIP1 | -0.0782
TOR3A | 1.15 (active)
ATP4A | -1.9 (active)
BAGE3 | -0.308
GDAP2 | 1.06 (active)
ATP1A4 | -1.2 (active)
SLC35A2 | -1.45 (active)
MAGEC3 | -0.555
POPDC2 | -1.18 (active)
H3C6 | 0.871
CALU | -1.85 (active)
MFF | -1.21 (active)
LARGE1 | 0.675
HNRNPA1 | 0.98
PGLS | -6.02 (active)
ABI2 | 0.969
ZFP69 | 0.757
IL20 | -1.29 (active)
WDR7 | 1.03 (active)
ZNF205 | -0.301
CYC1 | -1.91 (active)
CST5 | -2.05 (active)
WASF3 | -1.87 (active)
CLN5 | -1.23 (active)
RUNDC1 | -0.553
AUH | -1.36 (active)
COL6A1 | -1.9 (active)
CALML4 | 1.03 (active)
DDI1 | -0.333
FAM120A | 1.75 (active)
NRL | -2.49 (active)
NPTXR | -6.17 (active)
LBR | -1.54 (active)
MTPN | -1.34 (active)
OR9A2 | -1 (active)
SEMA3E | 0.284
PSME4 | -1.85 (active)
CEACAM21 | 0.0904
MCM5 | -1.27 (active)
COMMD8 | -1.3 (active)
HERPUD1 | 0.419
P3H2 | 0.701
TMED7 | 0.733
PPIF | -1.1 (active)
OSBPL11 | 0.34
MEAK7 | 1.38 (active)
GTF2H3 | -0.811
FARS2 | -0.615
ACTL10 | -3.6 (active)
SIRT6 | -3.58 (active)
MYDGF | -0.8
GATAD2A | -0.169
ANKRA2 | 0.0268
SLC24A1 | 0.748
DCAF17 | 1.86 (active)
FHL3 | -0.614
FOXS1 | 1.5 (active)
SPATS2 | -0.675
EXT2 | -1.45 (active)
RPS25 | 0.112
MARCO | -0.937
VIP | -2.79 (active)
NAA25 | 0.921
MT1F | 1.23 (active)
SLC32A1 | 0.319
OR4S1 | 0.01
STX11 | 2.17 (active)
THBS4 | -1.12 (active)
ZC3HAV1 | -1.23 (active)
AHSP | 0.185
UGDH | -0.797
CRYBA1 | 2.14 (active)
FGD1 | -2.54 (active)
CELA2A | 2.31 (active)
RHBDL2 | 1.08 (active)
OR9G9 | -2.12 (active)
LGI4 | -0.198
KPLCE | -1.05 (active)
PSG6 | -0.904
TMPRSS15 | 1.2 (active)
TEP1 | 1.82 (active)
ZSCAN10 | 0.525
ARRDC1 | 1.32 (active)
DPPA2 | 1.18 (active)
